Source: the supplement of paper PMC3484114
± gives the standard deviation. The list shows a part of the results, in another mix than the full data.

tested on: OVCAR-3-derived ovarian cancer stem-like cells (spheroids); experiment: cell growth relative to untreated control; higher = more growth (less inhibition); conditions: 2.29 µM; 96 h
Summary of the method: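 OVCAR-3 spheroid-derived stem-like cells were trypsin-dissociated, seeded at 50,000 cells/mL in stem cell medium in ultra-low attachment 96-well plates and preincubated 24 h. Compounds were then added at 2.29 uM for 96 h at 37°C, 5% CO2, in 4 replicate wells. Viability was read as TOX8 resazurin fluorescence (ex 560/em 590 nm) after 4 h. Percent growth was calculated relative to untreated wells after blank subtraction and Grubbs outlier removal.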

Compound | cell growth
c1ccc2c(NCCCCCCCCNc3c4ccccc4nc4ccccc34)c3ccccc3nc2c1 | 4.2 ± 2%
CC1=C[C@H]2O[C@@H]3CC4OC(=O)/C=C\C=C\C(C(C)O)OCC(O)C(C)CC(=O)OC[C@@]2(C[C@@H]1O)[C@]4(C)[C@@]31CO1 (some centres undefined) | 11.9 ± 8.4%
Fc1ccc(SC(CCl)CCl)cc1 | 94.4 ± 9.4%
O=NN(CCSCCCl)C(=O)NC1CCCCC1 | 111 ± 57%
